Results: patent US20250241971A1 (priority 2022, published 2025)

Test system: genes linked to inflammation (il1b, il8, il1a)
Assay: Expression of inflammation-linked genes in pig jejunum explants ex vivo
Details: explants exposed to 10 μM DON alone; FIG. 6

SMILES: CC1=C[C@H]2O[C@@H]3[C@H](O)C[C@](C)([C@@]2(CO)[C@H](O)C1=O)[C@]31CO1 [DON, Deoxynivalenol]
- production of gene transcripts linked to inflammation: leads to an increase in the production of gene transcripts linked to inflammation
